# In the supplement of paper PMC4206461:
# Only a part is listed here, and it is no random draw.
# System: Pseudomonas aeruginosa PA14 dppBCDF deletion mutant
# Assay: respiration area under curve with compound as sole nitrogen source, 24 h (OmniLog AUC (arbitrary units)); higher = more respiration / better utilisation as nitrogen source, active = 2000 or more
# Conditions: plate: PM8
# Description: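 Biolog Phenotype MicroArray plates PM6-PM8: each di/tripeptide is the sole nitrogen source. Tetrazolium reduction was read in the OmniLog every 15 min for 24 h at 37°C and summarised as area under the respiration curve (arbitrary units). Values below 2000 count as no respiration. Strain is the dipeptide ABC transporter deletion mutant. Lys/His/Cys peptides are excluded (dye reduction without growth).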
row,Structure (SMILES),respiration area under curve
1,CC(C)C[C@H](N)C(=O)N[C@@H](Cc1ccc(O)cc1)C(=O)O,active: 6090
